Compound potency records, mixed from different reports. Data source: NIAID ChemDB in PubChem.

Shared fields: growth or infection tests; organism: Plasmodium falciparum

Percent inhibition refers to the dose given; in toxicity tests it is the harm to the cells.

| SMILES | dose | strain | endpoint | mutations | cell line | method | result |
|---|---|---|---|---|---|---|---|
| O=P(O)(O)C(O)(Cc1cccnc1)P(=O)(O)O | 38.6 µM | 3D7 | inhibition |  |  |  | 90% |
| CCN1C(=O)SC(=Cc2c(OC)cc(OC)cc2OC)C1=O |  | W2 | EC50 | Chloroquine-resistant |  | fluorescence | >10 µM |
| CCN(CC)CCOc1ccccc1C(=O)CCc1ccccc1 |  | K1 | EC50 |  | Erythrocytes | flow cytometry | 1.01 µM |
| C[C@@H]1CC[C@H]2[C@@H](C)C(=O)O[C@@H]3OC4(C)CC[C@@H]1[C@]32OO4 |  | GNF-Pf4492R-3 | EC50 | GNF-Pf4492-resistant pfatp4 A187V |  | SYBR Green / fluorescence | 0.0185 µM |
| O[C@H](c1cc(C(F)(F)F)nc2c(C(F)(F)F)cccc12)[C@@H]1CCCCN1 |  | F32 | EC50 |  | human red blood cells | broth dilution / radiometric | 0.043 µM |
| CC(C)CN(NC(=O)C1CCC2(CC1)OOC1(OO2)C2CC3CC(C2)CC1C3)c1nc(C#N)ncc1Br |  | W2 | MIC |  |  | flow cytometry | 8 µM |
| C[C@H]1[C@@H](OC(=O)CCC(=O)O)O[C@@H]2O[C@@]3(C)CC[C@H]4[C@H](C)CC[C@@H]1[C@@]24OO3 |  | F32 | EC50 |  | human red blood cells | broth dilution / radiometric | 0.018 µM |
| CC(C)c1cccc(C=C2SC(=O)N(CC(=O)N3CCN(c4ccccc4)CC3)C2=O)c1 |  | W2 | EC50 | Chloroquine-resistant |  | fluorescence | >10 µM |
| C=C1CN2CCC34c5ccccc5N5C=C([C@H]6CC7C8=C(CCN7C/C6=C/C)C6C=CC=CC6N8)[C@@H](O)[C@@H]([C@H]53)[C@H]1C[C@]24O |  | 3D7 | EC90 |  |  |  | 15.1 µg/mL |
| C[C@H]1[C@@H](OC(=O)CCC(=O)O)O[C@@H]2O[C@@]3(C)CC[C@H]4[C@H](C)CC[C@@H]1[C@@]24OO3 |  | W2 | EC50 | Chloroquine-resistant |  | fluorescence | 0.019 µM |
| O[C@H](c1cc(C(F)(F)F)nc2c(C(F)(F)F)cccc12)[C@@H]1CCCCN1 |  | GNF-Pf4492R-1 | EC50 | GNF-Pf4492-resistant PfATP4 A211T |  | SYBR Green / fluorescence | 0.0135 µM |
| COc1cccc(C=C2SC(=O)N(CC(=O)N3CCN(c4ccccc4)CC3)C2=O)c1 |  | W2 | EC50 | Chloroquine-resistant |  | fluorescence | >10 µM |
| CC(C)(O)[C@H](O)COc1c2occc2cc2ccc(=O)oc12 |  | CQ-resistant | EC90 |  | RBC |  | 25.5 µg/mL |
| Cc1cccc2c(Nc3ccc(S(N)(=O)=O)cc3)c3ccc([N+](=O)[O-])cc3nc12 |  | 3D7 | EC50 |  | Erythrocytes | flow cytometry | >13.7 µM |
| C[C@@H]1O[C@@H](OC[C@H]2O[C@@H](Oc3c(-c4ccc(O)c(O)c4)oc4cc(O)cc(O)c4c3=O)[C@H](O)[C@@H](O)[C@@H]2O)[C@H](O)[C@H](O)[C@H]1O |  | Clinical isolates | EC90 |  |  |  | 60.6 µM |
| COc1cc(OC)c(C=C2SC(=O)N(CC(=O)N3CCN(c4ccc(C#N)cc4)CC3)C2=O)c(OC)c1 |  | W2 | EC50 | Chloroquine-resistant |  | fluorescence | 3.97 µM |
| c1ccc(C(CCNCC2(c3ccc4c(c3)OCCO4)CCOCC2)c2ccccc2)cc1 |  | 3D7 | EC50 |  | Erythrocytes | flow cytometry | >13.8 µM |
| C=C1CN2CCC34c5ccccc5N5C=C([C@H]6CC7C8=C(CCC7C/C6=C/C)c6ccccc6C8)[C@@H](O)[C@@H]([C@H]53)[C@H]1C[C@H]24 |  | 3D7 | EC90 |  |  |  | 2.528 µg/mL |
| COc1cc(OC)c(C=C2SC(=O)N(C34CC5CC(CC(C5)C3)C4)C2=O)c(OC)c1 |  | W2 | EC50 | Chloroquine-resistant |  | fluorescence | >10 µM |

A second listing of 2 rows from above:

SMILES | dose | strain | endpoint | mutations | cell line | method | result
CC(C)(O)[C@H](O)COc1c2occc2cc2ccc(=O)oc12 |  | CQ-resistant | EC90 |  | RBC |  | 25.5 µg/mL
C=C1CN2CCC34c5ccccc5N5C=C([C@H]6CC7C8=C(CCC7C/C6=C/C)c6ccccc6C8)[C@@H](O)[C@@H]([C@H]53)[C@H]1C[C@H]24 |  | 3D7 | EC90 |  |  |  | 2.528 µg/mL

Lines come from different laboratories, so protocols vary. ECn is the concentration giving n% inhibition of infection, replication or growth. Blank or dashed fields: not listed here.